In article PMC8777605 (Pharmaceuticals, 2021):

Tested on: SARS-CoV-2 gamma strain (P1, B.1.1.28)

## COC(=O)N[C@H](C(=O)N[C@@H](Cc1ccccc1)[C@@H](O)CN(Cc1ccc(-c2ccccn2)cc1)NC(=O)[C@@H](NC(=O)OC)C(C)(C)C)C(C)(C)C [ATV, atazanavir]
  SI (CC50/EC50): 782
